Compound potency records, mixed from different reports. Data source: NIAID ChemDB in PubChem.

Common to all: tests in culture; agent: Aspergillus fumigatus; measure: MIC90

A number after MIC or MFC names an inhibition level or a share of isolates. a–b is a range or a potency band. Conditions beyond the fields shown may differ between rows. Blank or dashed fields: not listed here.

| compound | strain | read by | value |
|---|---|---|---|
| C[C@@H](c1ncncc1F)[C@](O)(Cn1cncn1)c1ccc(F)cc1F | 256 isolates |  | 0.5 µg/mL |
| O=C(c1ccccc1)C(c1ccccc1)n1cncn1 |  | agar | 128 µg/mL |
| C[C@@H](c1ncncc1F)[C@](O)(Cn1cncn1)c1ccc(F)cc1F | 314 isolates |  | 1 µg/mL |
| C[C@H]1[C@H](O)[C@@H](C)/C=C/C=C/C=C/C=C/C=C/C=C/C=C/[C@H](O[C@@H]2O[C@H](C)[C@@H](O)[C@H](N)[C@@H]2O)C[C@@H]2O[C@](O)(C[C@@H](O)C[C@@H](O)CC[C@H](O)[C@@H](O)C[C@@H](O)CC(=O)O[C@H]1C)C[C@H](O)[C@H]2C(=O)O | 17 isolates |  | 2 µg/mL |
| C[C@@H](c1nc(-c2ccc(C#N)cc2)cs1)[C@](O)(Cn1cncn1)c1cc(F)ccc1F | 62 isolates |  | 2 µg/mL |
| Clc1ccc(C(c2ccccc2)n2cnc3ccccc32)cc1 |  | agar | >256 µg/mL |
| CCC(C)n1ncn(-c2ccc(N3CCN(c4ccc(OC[C@H]5CO[C@](Cn6cncn6)(c6ccc(Cl)cc6Cl)O5)cc4)CC3)cc2)c1=O | 35 isolates |  | 2 µg/mL |
| CCCCCOc1ccc(-c2cc(-c3ccc(C(=O)N[C@H]4C[C@@H](O)[C@@H](O)NC(=O)[C@@H]5[C@@H](O)[C@@H](C)CN5C(=O)[C@H]([C@H](O)CC(N)=O)NC(=O)[C@H]([C@H](O)[C@@H](O)c5ccc(O)c(OS(=O)(=O)O)c5)NC(=O)[C@@H]5C[C@@H](O)CN5C(=O)[C@H]([C@@H](C)O)NC4=O)cc3)no2)cc1 |  | broth dilution | 0.06 µg/mL |
| C[C@H]1[C@H](O)[C@@H](C)/C=C/C=C/C=C/C=C/C=C/C=C/C=C/[C@H](O[C@@H]2O[C@H](C)[C@@H](O)[C@H](N)[C@@H]2O)C[C@@H]2O[C@](O)(C[C@@H](O)C[C@@H](O)CC[C@H](O)[C@@H](O)C[C@@H](O)CC(=O)O[C@H]1C)C[C@H](O)[C@H]2C(=O)O | 314 isolates |  | 0.5 µg/mL |
| Nc1[nH]c(=O)ncc1F | 17 isolates |  | 64 µg/mL |
| C[C@@H](c1ncncc1F)[C@](O)(Cn1cncn1)c1ccc(F)cc1F |  | broth dilution | 0.5 µg/mL |
| CCC(C)n1ncn(-c2ccc(N3CCN(c4ccc(OC[C@H]5CO[C@](Cn6cncn6)(c6ccc(Cl)cc6Cl)O5)cc4)CC3)cc2)c1=O | 17 isolates |  | 0.25 µg/mL |
| C[C@H]1[C@H](O)[C@@H](C)/C=C/C=C/C=C/C=C/C=C/C=C/C=C/[C@H](O[C@@H]2O[C@H](C)[C@@H](O)[C@H](N)[C@@H]2O)C[C@@H]2O[C@](O)(C[C@@H](O)C[C@@H](O)CC[C@H](O)[C@@H](O)C[C@@H](O)CC(=O)O[C@H]1C)C[C@H](O)[C@H]2C(=O)O |  |  | 0.5 µg/mL |
| Clc1ccc(C(c2ccccc2)n2ccnc2)cc1 |  | agar | 4 µg/mL |
| CC(=O)N1CCN(c2ccc(OC[C@H]3CO[C@](Cn4ccnc4)(c4ccc(Cl)cc4Cl)O3)cc2)CC1 | 25 isolates |  | 16 µg/mL |
| COc1ccc(C(c2ccc(OC)cc2)n2ccnc2)cc1 |  | agar | >256 µg/mL |
| OC(Cn1cncn1)(Cn1cncn1)c1ccc(F)cc1F | 25 isolates |  | >128 µg/mL |
| CCC(C)n1ncn(-c2ccc(N3CCN(c4ccc(OC[C@H]5CO[C@](Cn6cncn6)(c6ccc(Cl)cc6Cl)O5)cc4)CC3)cc2)c1=O | 94 isolates |  | 0.4 µg/mL |
| CCCCCCCCOc1ccc(-c2ccc(C(=O)NC3CC(NCCN)CNC(=O)[C@@H]4[C@@H](O)[C@@H](C)CN4C(=O)[C@@H](CO)NC(=O)[C@H]([C@H](O)Cc4ccccc4)NC(=O)[C@@H]4C[C@@H](O)CN4C(=O)[C@H]([C@@H](C)O)NC3=O)cc2)cc1 | 25 isolates |  | 0.5 µg/mL |
| CC[C@@H]([C@H](C)O)n1ncn(-c2ccc(N3CCN(c4ccc(OC[C@@H]5CO[C@@](Cn6cncn6)(c6ccc(F)cc6F)C5)cc4)CC3)cc2)c1=O | 256 isolates |  | 0.5 µg/mL |
| CC[C@@H]([C@H](C)O)n1ncn(-c2ccc(N3CCN(c4ccc(OC[C@@H]5CO[C@@](Cn6cncn6)(c6ccc(F)cc6F)C5)cc4)CC3)cc2)c1=O | 12 strains |  | 0.12 µg/mL |
| C[C@@H](c1nc(-c2ccc(C#N)cc2)cs1)[C@](O)(Cn1cncn1)c1ccc(F)cc1F | 256 isolates |  | 0.5 µg/mL |
| c1ccc(C(c2ccccc2)n2cnc3ccccc32)cc1 |  | agar | >256 µg/mL |
| C[C@H]1[C@H](O)[C@@H](C)/C=C/C=C/C=C/C=C/C=C/C=C/C=C/[C@H](O[C@@H]2O[C@H](C)[C@@H](O)[C@H](N)[C@@H]2O)C[C@@H]2O[C@](O)(C[C@@H](O)C[C@@H](O)CC[C@H](O)[C@@H](O)C[C@@H](O)CC(=O)O[C@H]1C)C[C@H](O)[C@H]2C(=O)O | 25 isolates |  | 16 µg/mL |
| C[C@@H]1C/C=C/C=C/C=C/C=C/[C@H](OC2O[C@H](C)[C@@H](O)[C@H](N)[C@@H]2O)CC2O[C@](O)(C[C@@H](O)C[C@H]3O[C@@H]3/C=C/C(=O)O1)C[C@H](O)[C@H]2C(=O)O | Species complex |  | 4 µg/mL |
| C[C@H]1[C@H](O)[C@@H](C)/C=C/C=C/C=C/C=C/C=C/C=C/C=C/[C@H](O[C@@H]2O[C@H](C)[C@@H](O)[C@H](N)[C@@H]2O)C[C@@H]2O[C@](O)(C[C@@H](O)C[C@@H](O)CC[C@H](O)[C@@H](O)C[C@@H](O)CC(=O)O[C@H]1C)C[C@H](O)[C@H]2C(=O)O |  |  | 0.39 µg/mL |
| O=C(c1ccccc1)C(c1ccccc1)n1ccnc1 |  | agar | >256 µg/mL |
| CCC(C)n1ncn(-c2ccc(N3CCN(c4ccc(OC[C@H]5CO[C@](Cn6cncn6)(c6ccc(Cl)cc6Cl)O5)cc4)CC3)cc2)c1=O | 3 clinical isolates |  | 1 µg/mL |
| O=C(c1ccccc1)C(c1ccccc1)n1cnc2ccccc21 |  | agar | 64 µg/mL |
| C[C@@H](n1cnc2cc(Cl)ccc2c1=O)[C@](O)(Cn1cncn1)c1ccc(F)cc1F | 10 clinical isolates |  | 0.125 µg/mL |
| Clc1ccc(C(c2ccccc2)n2cncn2)cc1 |  | agar | 32 µg/mL |
| C[C@@H](c1ncncc1F)[C@](O)(Cn1cncn1)c1ccc(F)cc1F | 150 clinical isolates |  | 0.25–0.5 µg/mL |
| C[C@H]1[C@H](O)[C@@H](C)/C=C/C=C/C=C/C=C/C=C/C=C/C=C/[C@H](O[C@@H]2O[C@H](C)[C@@H](O)[C@H](N)[C@@H]2O)C[C@@H]2O[C@](O)(C[C@@H](O)C[C@@H](O)CC[C@H](O)[C@@H](O)C[C@@H](O)CC(=O)O[C@H]1C)C[C@H](O)[C@H]2C(=O)O | 12 strains |  | 2 µg/mL |

For reference, 5 entries again:

compound	strain	read by	value
CCC(C)n1ncn(-c2ccc(N3CCN(c4ccc(OC[C@H]5CO[C@](Cn6cncn6)(c6ccc(Cl)cc6Cl)O5)cc4)CC3)cc2)c1=O	17 isolates		0.25 µg/mL
C[C@@H](c1ncncc1F)[C@](O)(Cn1cncn1)c1ccc(F)cc1F		broth dilution	0.5 µg/mL
CCC(C)n1ncn(-c2ccc(N3CCN(c4ccc(OC[C@H]5CO[C@](Cn6cncn6)(c6ccc(Cl)cc6Cl)O5)cc4)CC3)cc2)c1=O	35 isolates		2 µg/mL
Clc1ccc(C(c2ccccc2)n2cncn2)cc1		agar	32 µg/mL
C[C@@H]1C/C=C/C=C/C=C/C=C/[C@H](OC2O[C@H](C)[C@@H](O)[C@H](N)[C@@H]2O)CC2O[C@](O)(C[C@@H](O)C[C@H]3O[C@@H]3/C=C/C(=O)O1)C[C@H](O)[C@H]2C(=O)O	Species complex		4 µg/mL